In PMC4517146, “Enzymatic Enantioselective Decarboxylative Protonation of Heteroaryl Malonates” (Chemistry (Weinheim an Der Bergstrasse, Germany), 2015):

Experiments:
Assay in all cases: purified protein
Conditions in all cases: assay conditions in Supporting Information
[1] = test system: O=C(O)C(O)(C(=O)O)c1cccnc1
[2] = test system: O=C(O)C(O)(C(=O)O)c1ccc2sccc2c1
[3] = test system: O=C(O)C(O)(C(=O)O)c1cc2ccccc2o1
[4] = test system: O=C(O)C(O)(C(=O)O)c1cccs1
[5] = test system: O=C(O)C(O)(C(=O)O)c1ccco1
[6] = test system: COc1ccc(C(O)(C(=O)O)C(=O)O)o1

aryl/alkenyl malonate decarboxylase (AMDase) (Bordetella bronchiseptica; M159V)
Km [1]: 7.3 ± 2.8 mM
kcat [1]: 86.4 s⁻¹
kcat/Km [1]: 11800 M⁻¹ s⁻¹
Km [2]: 0.82 ± 0.11 mM
kcat [2]: 54.8 s⁻¹
kcat/Km [2]: 66600 M⁻¹ s⁻¹
Km [3]: 3.6 ± 1.1 mM
kcat [3]: 182 s⁻¹
kcat/Km [3]: 50600 M⁻¹ s⁻¹
Km [4]: 3.5 ± 1.3 mM
kcat [4]: 79.3 s⁻¹
kcat/Km [4]: 22400 M⁻¹ s⁻¹
Km [5]: 7.2 ± 1.8 mM
kcat [5]: 149 s⁻¹
kcat/Km [5]: 20700 M⁻¹ s⁻¹

aryl/alkenyl malonate decarboxylase (AMDase) (Bordetella bronchiseptica; P14V/P15G)
Km [1]: 13.0 ± 5.7 mM
kcat [1]: 42.2 s⁻¹
kcat/Km [1]: 3200 M⁻¹ s⁻¹
Km [3]: 7.4 ± 1.8 mM
kcat [3]: 115 s⁻¹
kcat/Km [3]: 15600 M⁻¹ s⁻¹
Km [4]: 2.2 ± 0.5 mM
kcat [4]: 34 s⁻¹
kcat/Km [4]: 15200 M⁻¹ s⁻¹
Km [6]: 7.2 ± 1.1 mM
kcat [6]: 28.8 s⁻¹
kcat/Km [6]: 4100 M⁻¹ s⁻¹
